According to ChEMBL document CHEMBL3259643 (Eur J Med Chem, 2014):

Assay: Antiviral activity against oseltamivir-resistant Influenza A virus (A/WSN/1933(H1N1)) harboring neuraminidase H275Y mutant infected in MDCK cells assessed as protection against viral infection-mediated cytopathic effect after 48 to 72 hrs

SMILES | EC50 [nM]
CCCCOP(=O)(O)C1=C[C@@H](OC(CC)CC)[C@H](NC(C)=O)[C@@H](NC(=N)N)C1 | 97
CCC(CC)O[C@@H]1C=C(P(=O)(O)OCCCc2ccccc2)C[C@H](NC(=N)N)[C@H]1NC(C)=O | 224
CCCCCCOP(=O)(O)C1=C[C@@H](OC(CC)CC)[C@H](NC(C)=O)[C@@H](NC(=N)N)C1 | 262
CCCCOP(=O)(O)C1=C[C@@H](OC(CC)CC)[C@H](NC(C)=O)[C@@H](N)C1 | 9150
